Results of unrelated studies side by side (data: NIAID ChemDB).

Common to all: whole-cell or culture tests; organism: HIV-1; method: MTT; endpoint: EC50

An empty or dashed field is not shown.

smiles	cells	setting	strain or isolate	mutations	result
O=c1c2ccccc2sn1/N=C/c1ccc(O)cc1	MT-4				>18 µM
Cc1cc(Br)cc(C)c1Oc1ncc([N+](=O)[O-])c(Nc2ccc(C#N)cc2)n1	MT-4		RES056		>202.3 µM
Cc1cc(/C=C/C#N)cc(C)c1Oc1ccnc(Nc2ccc(CN3CCN(S(=O)(=O)N(C)C)CC3)cc2)n1	MT-4			Y188L	>3.07 µM
COc1nc(N(C)C)nc(Cc2c(F)cccc2F)c1C	MT-4		IIIB		>67 µM
CCCCOP(=O)(N[C@@H](Cc1ccccc1)[C@H](O)CN(CC(C)C)S(=O)(=O)c1ccc(OC)cc1)OCCCC	MT-4		RES056		>13.08 µg/mL
CCc1c(Cc2cc(C)cc(C)c2)n(COCC#Cc2ccc(O)cc2)c(=O)[nH]c1=O	MT-4		IIIB	K103N + Y181C	6 µM
COC(=O)N[C@H](C(=O)N[C@@H](Cc1ccccc1)C[C@H](O)[C@H](Cc1ccc(-c2ccnc(F)c2)cc1)NC[C@@H](NC(=O)OC)C(C)(C)C)C(C)(C)C	MT-4		pNL4-3		2 nM
Cc1cc(C#N)cc(C)c1Oc1nc(Nc2ccc(C#N)cc2)ncc1SCC(=O)NCC1CCCO1	MT-4			RES056	0.5179 µM
N#Cc1ccc(Nc2nc(Oc3ccc(-c4ccc(C#N)cc4)c(F)c3F)c3sccc3n2)cc1	MT-4		IIIB	E138K	0.017 µM
Cc1ccc2sn(/N=C/c3cccc(F)c3)c(=O)c2c1	MT-4			Y181C	>30 µM
CCOP(=O)(OCC)C(N[C@@H](Cc1ccccc1)[C@@H](O)CN(CC(C)C)S(=O)(=O)c1ccc(OC)cc1)C(C)C	MT-4		ROD		>13.68 µg/mL
CCOC(=O)c1c([C@@H]2C[C@H]2c2ccccc2)n(C)c2ccc(O)cc12	MT-4		NL4-3		3.58 µM
Cc1ccc2sn(/N=C/c3ccccc3Cl)c(=O)c2c1	MT-4			K103N + Y181C	>100 µM
CCCN(C)c1nc(C(C)c2c(F)cccc2F)c(C)c(=O)[nH]1	MT-4		NL4-3		0.0019 µM
O=c1c2ccccc2sn1/N=C/c1ccc2c(c1)OCO2	MT-4			EFV-resistant (K103 V179D P225H)	>17 µM
C=C(C)COCn1c(Cc2ccccc2)c(CO)c(=O)[nH]c1=O	MT-4		IIIB	K103N + Y181C	>20 µM
O=C1Nc2ccc(Cl)cc2[C@@](C#CC2CC2)(C(F)(F)F)O1	MT-4			E138K	0.0065 µM
CCc1c(Cc2cc(C)cc(C)c2)n(COCC#Cc2cccc(C#N)c2)c(=O)[nH]c1=O	MT-4		IIIB	EFV-resistant (K103R V179D P225H)	7.5 µM
CC(=O)Nc1cnc(Oc2c(C)cc(C)cc2C)nc1Nc1ccc(C#N)cc1	MT-4		RES056		>322 µM
Cc1c(Cl)nc(N(C)C)nc1C(C#N)c1c(F)cccc1F	C8166		IIIB	EFV-resistant (K103R V179D P225H)	>34 µM
C=C1CC[C@@H](OC(C)=O)[C@@]2(C)CC[C@]3(O)O[C@@]12C[C@@]3(C)CCC(=O)C(C)C	MT-2		IIIB		3.67 µM
CCc1c(Cc2cc(C)cc(C)c2)n(COCC#CC#CCO)c(=O)[nH]c1=O	MT-4		IIIB	EFV-resistant (K103R V179D P225H)	17 µM
N#Cc1ccc(Nc2nc(Oc3c(Br)cc(Br)cc3Br)ncc2NC(=O)C(F)(F)F)cc1	MT-4		RES056		2.9 µM
COC(=O)N[C@H](C(=O)N[C@@H](Cc1ccccc1)C[C@H](O)[C@H](Cc1ccc(-c2ccc(C(C)=O)cc2)cc1)NC[C@@H](NC(=O)OC)C(C)(C)C)C(C)(C)C	MT-4		pNL4-3		1 nM
Cc1ccc2sn(/N=C/c3ccc(O)cc3)c(=O)c2c1	MT-4			K103N + Y181C	>23 µM
C/C=C(\C)C(=O)OC[C@]1(C)C(=O)CC[C@@]2(C)[C@@H]3C[C@@H]4CC[C@@]3(CC[C@@H]21)CC4[C@@H](O)CO	MT-4				6.4 µg/mL
CN(C)c1nc(Cl)cc(C(C#N)c2c(F)cccc2F)n1	MT-4		IIIB	Y181C	>80 µM
C=C1C[C@@]23CC[C@@H]4[C@@H](C)[C@H](O)CC[C@@]4(C)[C@@H]2C[C@@H]1[C@@H](O)C3=O	MT-4				>25 µg/mL
CCOP(=O)(N[C@@H](Cc1ccccc1)[C@H](O)CN(CC(C)C)S(=O)(=O)c1ccc(OC)cc1)OCC	MT-4		ROD		>64.5 µg/mL
COC(=O)N[C@H](C(=O)N[C@@H](Cc1ccccc1)C[C@H](O)[C@H](Cc1ccc(-c2ccc(OC)cc2)cc1)NC[C@@H](NC(=O)OC)C(C)(C)C)C(C)(C)C	MT-4		pNL4-3		1 nM
C#CCNC(=O)CSc1cnc(Nc2ccc(C#N)cc2)nc1Oc1c(C)cc(C#N)cc1C	MT-4			Y188L	0.0193 µM
CCOP(=O)(OCC)C(N[C@@H](Cc1ccccc1)[C@@H](O)CN(CC(C)C)S(=O)(=O)c1ccc(OC)cc1)c1ccc2c(c1)OCO2	MT-4		IIIB		>13.73 µg/mL
CC1(C)C(=O)C=C[C@]2(C)[C@@H]1CC[C@@]13CC[C@@H](C[C@H]12)[C@](O)(CO)C3	MT-4				>25 µg/mL
Cc1cc(C#N)cc(C)c1Oc1nc(Nc2ccc(C#N)cc2)ncc1SCC(N)=O	MT-4		IIIB		0.0114 µM
O=c1c2ccccc2sn1/N=C/c1cccc(F)c1	MT-4			Y181C	>15 µM
CC(=O)Nc1cnc(Oc2c(Br)cc(Br)cc2Br)nc1Nc1ccc(C#N)cc1	MT-4		RES056		>118 µM
C=CCOCn1c(Cc2ccccc2)c(CO)c(=O)[nH]c1=O	MT-4				6 µM
CCc1c(Cc2cc(C)cc(C)c2)n(COCC#Cc2ccc(NC(=O)CBr)cc2)c(=O)[nH]c1=O	MT-4		IIIB	Y181C	1.3 µM
CCc1c(Cc2cc(C)cc(C)c2)n(COCCF)c(=O)[nH]c1=O	MT-4		IIIB	K103N + Y181C	4 µM
COc1cccc(OC)c1C(=O)c1nc(N(C)C)nc(OC)c1C	MT-4		IIIB		>8 µM
N#Cc1ccc(Nc2nc(Oc3c(Br)cc(Br)cc3Br)ncc2[N+](=O)[O-])cc1	MT-4		IIIB		3.9 µM
COC(=O)N[C@H](C(=O)N[C@@H](Cc1ccccc1)C[C@H](O)[C@H](Cc1ccc(-c2ccccc2)cc1)NC[C@@H](NC(=O)OC)C(C)(C)C)C(C)(C)C	MT-4	50% human serum	pNL4-3		95 nM
N#Cc1ccc(Nc2nc(Oc3c(Cl)cc(Cl)cc3Cl)ncc2NC(=O)C(F)(F)F)cc1	MT-4		IIIB		0.064 µM
COc1cc(C(C#N)c2c(F)cccc2F)nc(N(C)C)n1	MT-4		IIIB		3 µM
Cc1cc(C#N)cc(C)c1Oc1nc(Nc2ccc(C#N)cc2)ncc1SCC(=O)NCCN1CCN(C(=O)OC(C)(C)C)CC1	MT-4			F227L V106A	0.893 µM
Nc1ccn([C@H]2CC[C@@H](CO)O2)c(=O)n1	MT-4		Clinical isolate		1.25 µg/mL
O=c1c2ccccc2sn1/N=C/c1ccc(O)cc1O	MT-4			EFV-resistant (K103 V179D P225H)	>21 µM
CCc1c(Cc2cc(C)cc(C)c2)n(Cc2ccc(C#CCO)cc2)c(=O)[nH]c1=O	MT-4		IIIB	EFV:K103R+V179D+P225H	>2 µM
CCc1c(Cc2cc(C)cc(C)c2)n(COCC#Cc2cc3ccccc3c3ccccc23)c(=O)[nH]c1=O	MT-4		IIIB	K103N + Y181C	>80 µM
O=c1c2ccccc2sn1/N=C/c1ccc(F)cc1	MT-4				4.4 µM
CCc1c(Cc2cc(C)cc(C)c2)n(COCc2cn(Cc3c(F)cccc3F)nn2)c(=O)[nH]c1=O	MT-4		IIIB	K103N + Y181C	14 µM
Cc1cc(C#N)cc(C)c1Oc1nc(Nc2ccc(C#N)cc2)ncc1SCC(=O)NC1CCN(C(=O)OC(C)(C)C)CC1	MT-4			F227L V106A	0.3389 µM
Cc1cc(-c2ccc(C#N)cc2)cc(Cl)c1Oc1nc(Nc2ccc(C#N)cc2)nc2ccsc12	MT-4		RES056		0.148 µM
CCc1c(Cc2ccccc2C)n(COCC#Cc2ccccc2)c(=O)[nH]c1=O	MT-4		IIIB	Y181C	>26 µM
COC(=O)N[C@H](C(=O)N[C@@H](Cc1ccccc1)C[C@H](O)[C@H](Cc1ccc(-c2ccc(C#N)nc2)cc1)NC[C@@H](NC(=O)OC)C(C)(C)C)C(C)(C)C	MT-4	50% human serum	pNL4-3		23 nM
Cc1cc(C)c(Oc2ncc(N)c(Nc3ccc(C#N)cc3)n2)c(C)c1	MT-4		RES056		0.75 µM
N#Cc1ccc(Nc2nc(Oc3c(F)cc(-c4ccc(C#N)cc4)cc3F)c3sccc3n2)cc1	MT-4		RES056		>78.6 µM
CCOP(=O)(OCC)C(N[C@@H](Cc1ccccc1)[C@H](O)CN(CC(C)C)S(=O)(=O)c1ccc(OC)cc1)c1ccc2c(c1)OCO2	MT-4		ROD		>13.2 µg/mL
COCCNC(=O)CSc1cnc(Nc2ccc(C#N)cc2)nc1Oc1c(C)cc(C#N)cc1C	MT-4			F227L V106A	0.1535 µM
N#Cc1ccc(Nc2nc(Oc3c(Cl)cccc3Cl)ncc2N)cc1	MT-4		RES056		>33 µM
Cc1cc(C#N)cc(C)c1Oc1nc(Nc2ccc(C#N)cc2)ncc1SCC(=O)NC1CC1	MT-4			RES056	0.1165 µM
Cc1ccc2sn(/N=C/c3ccc([N+](=O)[O-])cc3[N+](=O)[O-])c(=O)c2c1	MT-4			K103N + Y181C	>100 µM
COC(=O)N[C@H](C(=O)N[C@@H](Cc1ccccc1)C[C@H](O)[C@H](Cc1ccc(-c2cncc(F)c2)cc1)NC[C@@H](NC(=O)OC)C(C)(C)C)C(C)(C)C	MT-4		pNL4-3		4 nM
CC(=O)Nc1cnc(Oc2c(C)cc(Br)cc2C)nc1Nc1ccc(C#N)cc1	MT-4		RES056		>147 µM
CC1(C)CC[C@H](O)[C@]2(C)[C@@H]1CC[C@@]13CC[C@@H](C[C@H]12)C([C@@H](O)CO)C3	MT-4				>25 µg/mL
CCc1c(Cc2cc(C)cc(C)c2)n(Cc2ccc(C#CCF)cc2)c(=O)[nH]c1=O	MT-4				0.02 µM
Cc1cc(C#N)cc(C)c1Oc1nc(Nc2ccc(C#N)cc2)ncc1SCC(=O)NCc1ccc(O)cc1	MT-4			Y181C	0.0384 µM

The first 10 rows once more:

smiles,cells,setting,strain or isolate,mutations,result
O=c1c2ccccc2sn1/N=C/c1ccc(O)cc1,MT-4,,,,>18 µM
Cc1cc(Br)cc(C)c1Oc1ncc([N+](=O)[O-])c(Nc2ccc(C#N)cc2)n1,MT-4,,RES056,,>202.3 µM
Cc1cc(/C=C/C#N)cc(C)c1Oc1ccnc(Nc2ccc(CN3CCN(S(=O)(=O)N(C)C)CC3)cc2)n1,MT-4,,,Y188L,>3.07 µM
COc1nc(N(C)C)nc(Cc2c(F)cccc2F)c1C,MT-4,,IIIB,,>67 µM
CCCCOP(=O)(N[C@@H](Cc1ccccc1)[C@H](O)CN(CC(C)C)S(=O)(=O)c1ccc(OC)cc1)OCCCC,MT-4,,RES056,,>13.08 µg/mL
CCc1c(Cc2cc(C)cc(C)c2)n(COCC#Cc2ccc(O)cc2)c(=O)[nH]c1=O,MT-4,,IIIB,K103N + Y181C,6 µM
COC(=O)N[C@H](C(=O)N[C@@H](Cc1ccccc1)C[C@H](O)[C@H](Cc1ccc(-c2ccnc(F)c2)cc1)NC[C@@H](NC(=O)OC)C(C)(C)C)C(C)(C)C,MT-4,,pNL4-3,,2 nM
Cc1cc(C#N)cc(C)c1Oc1nc(Nc2ccc(C#N)cc2)ncc1SCC(=O)NCC1CCCO1,MT-4,,,RES056,0.5179 µM
N#Cc1ccc(Nc2nc(Oc3ccc(-c4ccc(C#N)cc4)c(F)c3F)c3sccc3n2)cc1,MT-4,,IIIB,E138K,0.017 µM
Cc1ccc2sn(/N=C/c3cccc(F)c3)c(=O)c2c1,MT-4,,,Y181C,>30 µM

ECn: concentration that inhibits the pathogen or its effect by n%. Conditions beyond the fields shown may differ between rows.